PubChem BioAssay AID504761 | Drosophila RNAi Screening Center | 2011
In all, the deposit lists about 22,000 reagents; below is an unselected part of those with a known target gene and a result. Of all reagents, 116 (0.52%) are marked active. 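Calls depend on retest data that are not deposited; infection was ranked per plate without normalising between plates; the unit of the infection score is not given.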 The raw values are shown without normalisation. Unmarked entries are inactive. Reagents against one gene are numbered here. Names joined by + are all predicted targets of the reagent. Further read-outs or replicates are left out here. Not given: the amount of reagent, the time to read-out.

Aim: 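Genome-wide fly cell screen for genes dengue virus requires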 (primary screen)
Cell system: D.Mel-2 cells from Drosophila
Reagent: long dsRNA against Drosophila genes
Conditions: infection with dengue virus type 2; dose and infection time not stated
Read-out: 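Cells stained for dengue envelope protein and imaged; percent of infected cells per well on duplicate plates, ranked by infection, with stained nuclei counted for cell number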
Reading the numbers: infection score: higher = more virus-infected cells; cell count: higher = more cells in the well
Call rule: 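Very low infection ranking in both replicate wells (chance probability at most 0.065), then a retest showing infection dropped 1.5-fold or more at p below 0.05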
Calls: active = confirmed: knock-down lowers infection; inactive = not picked or not confirmed

| gene knocked down | reagent | infection score, replicate 1 | infection score, replicate 2 | cell count, replicate 1 |
| --- | --- | --- | --- | --- |
| Arp5 (Actin-related protein 5) | 1 | 28.9 | 26.2 | 5490 |
| Arp5 (Actin-related protein 5) | 2 | 12.4 | 0.21 | 3389 |
| CG4984 + CG4975 | 1 | 7.37 | 7.36 | 7025 |
| CG4984 + CG4975 | 2 | 18.6 | 26.2 | 6142 |
| CG13996 | 1 | 6.16 | 5.92 | 5857 |
| lncRNA:CR42491 + RpL22 | 1 | 2.69 | 3.31 | 1375 |
| bib (big brain) | 1 | 15.9 | 17.9 | 6339 |
| bib (big brain) | 2 | 2.22 | 10.7 | 6636 |
| Pgant8 (Polypeptide N-Acetylgalactosaminyltransferase 8) | 1 | 0.62 | 0.88 | 6005 |
| Pgant8 (Polypeptide N-Acetylgalactosaminyltransferase 8) | 2 | 1.3 | 3.23 | 6396 |
| EndoGI (Endonuclease G inhibitor) | 1 | 20.2 | 2.85 | 4876 |
| Mocs2A + Mocs2B | 1 | 16.9 | 2.9 | 2012 |
| Mocs2A + Mocs2B | 2 | 5.46 | 2.93 | 6448 |
| CG2816 | 1 | 4.82 | 1.91 | 6429 |
| CG2816 | 2 | 2.37 | 1.58 | 5991 |
| CG7298 | 1 | 5.62 | 6.65 | 6943 |
| wupA (wings up A) | 1 | – | – | 310 |
| wupA (wings up A) | 2 | 1.64 | 2.44 | 6627 |
| wupA (wings up A) | 3 | – | 14 | 323 |
| CtBP (C-terminal Binding Protein) | 1 | 16.6 | 14.8 | 5341 |
| CtBP (C-terminal Binding Protein) | 2 | 2.99 | 2.2 | 5379 |
| cGlr2 (cGAS-like receptor 2) | 1 | 0.78 | 1.14 | 5650 |
| CG5986 | 1 | 1.92 | 1.89 | 6051 |
| CG5986 | 2 | 6.13 | 1.73 | 6918 |
| REPTOR-BP (REPTOR-binding partner) | 1 | 2.02 | 11.1 | 6644 |
| REG (Proteasome regulator gamma) | 1 | 5.23 | 6.66 | 5871 |
| CG3434 | 1 | 10.6 | 2.34 | 6432 |
| D19B | 1 | 1.09 | 0.73 | 5892 |
| D19B | 2 | 2.44 | 2.18 | 6434 |
| CG30471 | 1 | 21.1 | 9.97 | 5656 |
| CG4646 | 1 | 14.2 | 7.87 | 5499 |
| gskt (gasket) | 1 | 0.4 | 0.12 | 6577 |
| gskt (gasket) | 2 | 1.6 | 3.34 | 6137 |
| CG3527 | 1 | 8.03 | 2.78 | 1706 |
| CG3527 | 2 | 12.8 | 4.18 | 3193 |
| CG14180 (retired record) | 1 | 3.76 | 4.98 | 5529 |
| CG14180 (retired record) | 2 | 2.77 | 4.11 | 6570 |
| CG11200 | 1 | 11.9 | 17.2 | 6171 |
| CG11200 | 2 | 17.1 | 23.3 | 6359 |
| uzip (unzipped) | 1 | 12.3 | 38.6 | 6196 |
| uzip (unzipped) | 2 | 25.1 | 6.76 | 2102 |
| Polr2H (RNA polymerase II, I and III subunit H) | 1 | 17.5 | 43.8 | 3718 |
| Noa36 | 1 | 2.54 | 5.66 | 5190 |
| if (inflated) | 1 | 12.1 | 11.1 | 5905 |
| RpL40 (Ribosomal protein L40) | 1 | 2.21 | 6.77 | 6641 |
| hwt (heavyweight) | 1 | 6.14 | 2.91 | 6633 |
| hwt (heavyweight) | 2 | 3.94 | 7.15 | 6138 |
| hwt (heavyweight) | 3 | 1.73 | 3.26 | 6082 |
| CG31213 | 1 | 12.6 | 1.65 | 3799 |
| CG31213 | 2 | 7.33 | 3.6 | 6375 |
| CG2224 | 1 | 4.11 | 9.06 | 6156 |
| CG2224 | 2 | 4.23 | 1.45 | 6128 |
| CG10222 | 1 | 0.63 | 1.2 | 6154 |
| CG10222 | 2 | 7.85 | 11.2 | 6189 |
| HP1c (Heterochromatin Protein 1c) | 1 | 6.26 | 4 | 6601 |
| HP1c (Heterochromatin Protein 1c) | 2 | 7.15 (active) | 4.87 | 3860 |
| RanBP3 (Ran binding protein 3) | 1 | 1.62 | 2.81 | 6592 |
| RanBP3 (Ran binding protein 3) | 2 | 2.68 | 8.04 | 6574 |

Already shown: 5 of the entries above.
| gene knocked down | reagent | infection score, replicate 1 | infection score, replicate 2 | cell count, replicate 1 |
| --- | --- | --- | --- | --- |
| REG (Proteasome regulator gamma) | 1 | 5.23 | 6.66 | 5871 |
| CG3434 | 1 | 10.6 | 2.34 | 6432 |
| D19B | 1 | 1.09 | 0.73 | 5892 |
| D19B | 2 | 2.44 | 2.18 | 6434 |
| CG30471 | 1 | 21.1 | 9.97 | 5656 |
